Measurements taken from US20260209317A1 (US Dept. of Health and Human Services, published 2026).

Experiments:
[1] = target: SARS-CoV-2 delta (B.1.617.2) S-2P spike protein (SARS-CoV-2); test: ELISA, plate coated with Delta S-2P
[2] = target: SARS-CoV-2 beta (B.1.351) S-2P spike protein (SARS-CoV-2); test: ELISA, plate coated with Beta S-2P
[3] = target: T1, SARS-CoV-2 delta (B.1.617.2) RBD protein (SARS-CoV-2); test: ELISA, plate coated with Delta RBD
T1 construct: domain: RBD

[4] = target: T2, SARS-CoV-2 beta (B.1.351) RBD protein (SARS-CoV-2); test: ELISA, plate coated with Beta RBD
T2 construct: domain: RBD

B1: B2-269.1 (antibody, V domains shown)
VH: EVQLVESGGGLVQPGGSLRLSCAASGITVSSNYMSWVRQPPGKGLDWVSLIFSGGSTYYADSVKGRFTISRDNSKNTLYLQMNSLRAEDTAVYYCARVGVAVAGTDYDIWGQGTMVTVSS
VL: DIQMTQSPSSLSASVGDRVTITCQASQDINKYLNWYQQKPGKAPKLLIYDASNLETGVPSRFSGSGSGTDFTFTISSLQPEDIATYYCLHYENLPLSFGGGTKVEIK
EC50 (read off the curve) [1]: ~4 ng/mL | EC50 (read off the curve) [2]: ~2 ng/mL | EC50 (read off the curve) [3]: ~7 ng/mL | EC50 (read off the curve) [4]: ~2 ng/mL
